A mixed list of measured activities; the numbers were collected in NIAID ChemDB.

Shared fields: whole-cell or culture tests; agent: HIV-1; cells: CEM; measure: EC50

Conditions beyond the fields shown may differ between rows. ECn is the concentration giving n% inhibition of infection, replication or growth. Blank or dashed fields: not listed here.

structure | strain or isolate | mutations | method | value
O=C(O)C1=CC(=C(c2ccc(O)c(C(=O)O)c2)c2ccc(O)c(C(=O)O)c2)C=CC1=O |  |  | cytopathic effect | 38 µM
c1nc[nH]n1 | IIIB |  | cytopathic effect / MTT | >100 µg/mL
CC(C)(C)OC(=O)Nc1cccc(B(O)O)c1 | IIIB |  | syncytia | ≥250 µM
C[C@@]1(Br)C(=O)NC(=O)N([C@H]2C=C[C@@H](CO)O2)[C@H]1N=[N+]=[N-] | RF |  | cytopathic effect / XTT | 0.918 µM
O=Cc1ccccc1B(O)O | IIIB |  | syncytia | >50 µM
Nc1cc(C(=O)O)ccc1SSc1ccc(C(=O)O)cc1N | RF |  | cytopathic effect / XTT | 35.2 µM
CO[C@@H]1N([C@H]2C=C[C@@H](CO)O2)C(=O)NC(=O)[C@@]1(C)I | RF |  | cytopathic effect / XTT | 0.376 µM
N[C@@H](CCC(=O)Nc1ccc(B(O)O)cc1)C(=O)O | IIIB |  | syncytia | >50 µM
Cc1cn([C@H]2C[C@H](Nc3n[nH]c(N)n3)[C@@H](CO)O2)c(=O)[nH]c1=O | IIIB |  | cytopathic effect / MTT | >100 µg/mL
Cc1occc1C(=S)Nc1ccc(Cl)c(/C=N/OC(C)(C)C)c1 | HXB2 | RT-M41L T215Y | syncytia | 0.03 µg/mL
Nc1nc2c(ncn2C2C=C[C@@H](CO)C2)c(=O)[nH]1 | HE |  |  | 3.5 µM
CO[C@H]1N([C@H]2C=C[C@@H](CO)O2)C(=O)NC(=O)[C@]1(C)I | RF |  | cytopathic effect / XTT | 0.376 µM
CC(C)Nc1cccnc1N1CCN(C(=O)c2cc3cc(NS(C)(=O)=O)ccc3[nH]2)CC1 | Q-1 (RT T139K Y181C Y188D/Y) | RT-T139K Y181C Y188D/Y | cytopathic effect | 1.1 µg/mL
CO[C@@H]1N([C@H]2C=C[C@@H](CO)O2)C(=O)NC(=O)[C@@]1(C)Br | RF |  | cytopathic effect / XTT | 54.6 µM
O=Cc1ccc(B(O)O)cc1 | IIIB |  | syncytia | >50 µM
COc1cc2nc(C34CC5CC(CC(C5)C3)C4)oc(=O)c2cc1OC |  |  | cytopathic effect / XTT | >65.8 µM
Cc1cc(S(=O)(=O)Nc2nnc3c4scc(C)c4ncn23)c(S)cc1Cl | RF |  | cytopathic effect / XTT | >126 µM
Cc1ccnc2c1NC(=O)c1cccnc1N2C1CC1 | B-1 (RT L100V K103R/K Y188H) | RT-L100V K103R/K Y188H | cytopathic effect | 0.05 µg/mL
Cc1cc(S(=O)(=O)Nc2n[nH]c(N)n2)c(SCC(=O)O)cc1Cl | RF |  | cytopathic effect / XTT | >200 µM
C[C@]1(Br)C(=O)NC(=O)N([C@H]2C=C[C@@H](CO)O2)[C@@H]1O | RF |  | cytopathic effect / XTT | >200 µM
Nc1nc2c(ncn2C2CC=C[C@H]2CO)c(=O)[nH]1 | HE |  |  | >100 µM
O=c1[nH]cnc2c1ncn2[C@H]1CC[C@@H](CO)O1 | HXB2 | RT-M41L T215Y | syncytia | 2.9 µg/mL
C[C@@H](Cn1cnc2c(N)nc(N)nc21)OCP(=O)(O)O | IIIB |  | syncytia | 6.6 µM
O=C(O)c1cc(C(O)(c2ccc(O)c(C(=O)O)c2)c2ccc(O)c(C(=O)O)c2)ccc1O |  |  | cytopathic effect | 110 µM
O=S(=O)(Nc1nnc2c3ccccc3cnn12)c1ccc(Cl)cc1S | RF |  | cytopathic effect / XTT | 70 µM
Cc1cn([C@H]2C[C@H](NC(N)=O)[C@@H](CO)O2)c(=O)[nH]c1=O | IIIB |  | cytopathic effect / MTT | >100 µg/mL
Cc1cn([C@@H]2O[C@H](CO[Si](C)(C)C(C)(C)C)[C@@]3(OS(=O)(=O)C=C3N)[C@H]2O[Si](C)(C)C(C)(C)C)c(=O)[nH]c1=O | IIIB | RT-Y181C | syncytia | 3 µM
Nc1nc(NC2CC2)c2ncn(C3CC=C[C@H]3CO)c2n1 | HE |  |  | >100 µM
Cc1cc(S(=O)(=O)Nc2nc(N)n(C)n2)c(S)cc1Cl | RF |  | cytopathic effect / XTT | >200 µM
CC(C)=CCN1Cc2cc(Cl)cc3[nH]c(=S)n(c23)C[C@@H]1C | HXB2 |  | syncytia | 0.09 µg/mL
Cc1cn([C@H]2C[C@H](N=[N+]=[N-])[C@@H](CO)O2)c(=O)[nH]c1=O | IIIB |  | p24 | >0.3 µM
CC(C)(C)NC(=O)[C@@H]1C[C@@H]2CCCC[C@@H]2CN1C[C@@H](O)[C@H](Cc1ccccc1)NC(=O)[C@H](CC(N)=O)NC(=O)c1ccc2ccccc2n1 | GB8(PR-WT) |  | p24 | 0.008 µM
CNC(=O)c1cc(S(=O)(=O)Nc2nncn2CC(C)C)c(S)cc1Cl | RF |  | cytopathic effect / XTT | >200 µM
COC1(C)C(=O)NC(=O)N([C@H]2C=C[C@@H](CO)O2)[C@@H]1O | RF |  | cytopathic effect / XTT | 7.82 µM
NNC(=O)c1cc(Cl)ccc1NC(=O)C12CC3CC(CC(C3)C1)C2 |  |  | cytopathic effect / XTT | >15.1 µM
CC(C)=CCOc1cc(NC(=S)c2ccoc2C)ccc1Cl | B-1 (RT L100V K103R/K Y188H) | RT-L100V K103R/K Y188H | cytopathic effect | 0.013 µg/mL
Cc1ccc2nc(C34CC5CC(CC(C5)C3)C4)oc(=O)c2c1 |  |  | cytopathic effect / XTT | >80 µM
C[C@@H](Cn1cnc2c(N)ncnc21)OCP(=O)(O)O | IIIB |  | syncytia | 244 µM
COC(=O)[C@H](C)NP(=O)(OC[C@@H]1C=C[C@H](n2cnc3c(N)ncnc32)O1)Oc1ccccc1 | IIIB |  | syncytia | 0.006 µM
Cc1cn([C@H]2C[C@H](N=[N+]=[N-])[C@@H](CO)O2)c(=O)[nH]c1=O | IIIB |  | cytopathic effect | 0.03 µM
Cc1ccnc2c1NC(=O)c1cccnc1N2C1CC1 | IIIB | RT-C181I | syncytia | >75 µM
CCO[C@H]1N([C@H]2C=C[C@@H](CO)O2)C(=O)NC(=O)[C@]1(C)Br | RF |  | cytopathic effect / XTT | >14 µM
Cc1cc(S(=O)(=O)Nc2nnc3c4c(C)csc4ncn23)c(S)cc1Cl | RF |  | cytopathic effect / XTT | >117.2 µM
CCOCn1c(Sc2ccccc2)c(CC)c(=O)[nH]c1=O | IIIB |  | syncytia | 0.014 µM
Nc1ncnc2c1ncn2[C@H]1CC[C@@H](CO)O1 | IIIB |  | syncytia | 4 µM
Cc1cc(S(=O)(=O)Nc2nnc3c(C(F)(F)F)cc(Cl)cn23)c(S)cc1Cl | RF |  | cytopathic effect / XTT | 58.1 µM
Nc1nc(=O)n([C@@H]2CS[C@H](CO)O2)cc1F | LAV-1 |  | cytopathic effect | 0.009 µM

For reference, 7 entries again:

structure | strain or isolate | mutations | method | value
Cc1cn([C@H]2C[C@H](N=[N+]=[N-])[C@@H](CO)O2)c(=O)[nH]c1=O | IIIB |  | p24 | >0.3 µM
Nc1nc2c(ncn2C2CC=C[C@H]2CO)c(=O)[nH]1 | HE |  |  | >100 µM
COc1cc2nc(C34CC5CC(CC(C5)C3)C4)oc(=O)c2cc1OC |  |  | cytopathic effect / XTT | >65.8 µM
CNC(=O)c1cc(S(=O)(=O)Nc2nncn2CC(C)C)c(S)cc1Cl | RF |  | cytopathic effect / XTT | >200 µM
CC(C)Nc1cccnc1N1CCN(C(=O)c2cc3cc(NS(C)(=O)=O)ccc3[nH]2)CC1 | Q-1 (RT T139K Y181C Y188D/Y) | RT-T139K Y181C Y188D/Y | cytopathic effect | 1.1 µg/mL
Cc1cn([C@H]2C[C@H](N=[N+]=[N-])[C@@H](CO)O2)c(=O)[nH]c1=O | IIIB |  | cytopathic effect | 0.03 µM
Cc1ccnc2c1NC(=O)c1cccnc1N2C1CC1 | IIIB | RT-C181I | syncytia | >75 µM